A mixed list of measured activities; the numbers were collected in NIAID ChemDB.

An empty or dashed field is not shown.

SMILES,test,target,dose,endpoint,read by,strain,species,result
O=C(c1ccncc1)c1cccc(Cl)c1,culture,-,-,MIC bound,resazurin,H37Rv,Mycobacterium tuberculosis,>6.25 µg/mL
C[N+](C)(CCCCCCCCCCOc1ccccc1)CCCCCCCCCCOc1ccccc1.[Br-],culture,-,-,MIC,-,H37Rv,Mycobacterium tuberculosis,>100 µg/mL
CCOc1ccc(-c2cncc(N3CCN(c4ccncc4)CC3)n2)cc1,target,UL97 kinase,1 µM,inhibition,-,-,Cytomegalovirus,<50%
O=C(O)C1=C(C(=O)Nc2ccc(NC(=O)C3=C(C(=O)O)CCC3)cc2)CCC1,culture,-,12.5 µg/mL,inhibition,BACTEC,H37Rv,Mycobacterium tuberculosis,14%
O=C(Nc1ccccc1)c1ccc([N+](=O)[O-])cc1O,culture,-,-,MIC,-,H37Rv,Mycobacterium tuberculosis,25 µg/mL
Cc1cccc(-c2cncc(N3CCN(c4ccncc4)CC3)n2)c1,target,UL97 kinase,-,IC50,-,-,Cytomegalovirus,<10 µM
COc1cc2c(cc1OC)C1CC(=O)C(C3(O)C(=O)Nc4ccccc43)CN1CC2,culture,-,-,MIC bound,BACTEC,H37Rv,Mycobacterium tuberculosis,>12.5 µg/mL
COC(=O)c1ccc(/C=C/c2ccc(Br)cc2)cc1,culture,-,-,MIC,-,H37Rv,Mycobacterium tuberculosis,>100 µg/mL
OC1C(O)C(O)C(O)C(O)C1O,culture,-,12.5 µg/mL,inhibition,BACTEC,H37Rv,Mycobacterium tuberculosis,2%
CCOC(=O)c1ccc([N+](=O)[O-])cc1O,culture,-,-,MIC,-,H37Rv,Mycobacterium tuberculosis,100 µg/mL
O=C1NC(=O)C2(O)NC(=O)NC2(O)N1,culture,-,-,MIC bound,BACTEC,H37Rv,Mycobacterium tuberculosis,>12.5 µg/mL
CC(O)c1cccc(N)c1,culture,-,-,MIC,-,H37Rv,Mycobacterium tuberculosis,100 µg/mL
CN(C)c1ccc(-c2cncc(N3CCC(c4ccccc4)CC3)n2)cc1,target,UL97 kinase,-,IC50,-,-,Cytomegalovirus,<10 µM
Oc1ccc(C=Nc2ccc(N=Nc3ccccc3)cc2)c(O)c1,culture,-,-,MIC,-,H37Rv,Mycobacterium tuberculosis,25 µg/mL
Cc1ccc(-c2cncc(N3CCN(c4cccc(Cl)c4)CC3)n2)cc1,target,UL97 kinase,-,IC50,-,-,Cytomegalovirus,<100 µM
Nc1nc(-c2ccco2)cc(-c2ccc(CO)o2)n1,culture,-,12.5 µg/mL,inhibition,BACTEC,H37Rv,Mycobacterium tuberculosis,11%
Fc1ccc(N2CCCCC2)c(NC(=S)c2ccncc2)c1,host protein,Flt1,10 µM,inhibition,kinase activity,-,-,9%
COc1ccc(-c2cncc(N3CCN(c4ccc(C(F)(F)F)cc4)CC3)n2)cc1OC,target,UL97 kinase,10 µM,inhibition,-,-,Cytomegalovirus,>15%
CCOC(=O)C(Br)C(C)CC,culture,-,-,MIC,-,H37Rv,Mycobacterium tuberculosis,>100 µg/mL
O=C1c2ccccc2C(=O)c2cc3nc4c5ccccc5c5ccccc5c4nc3cc21,culture,-,12.5 µg/mL,inhibition,BACTEC,H37Rv,Mycobacterium tuberculosis,-16%
Cc1cc(C)cc(-c2cncc(N3CCN(c4ccc(F)cc4F)CC3)n2)c1,target,UL97 kinase,10 µM,inhibition,-,-,Cytomegalovirus,>15%

A second listing of 2 rows from above:

{"SMILES": "O=C(c1ccncc1)c1cccc(Cl)c1", "test": "culture", "endpoint": "MIC bound", "read by": "resazurin", "strain": "H37Rv", "species": "Mycobacterium tuberculosis", "result": ">6.25 µg/mL"}
{"SMILES": "O=C(Nc1ccccc1)c1ccc([N+](=O)[O-])cc1O", "test": "culture", "endpoint": "MIC", "strain": "H37Rv", "species": "Mycobacterium tuberculosis", "result": "25 µg/mL"}

Percent inhibition refers to the dose given; in toxicity tests it is the harm to the cells. MIC bound: limit read from a one-dose screen. ICn is the concentration giving n% inhibition. Neighbouring rows are from separate reports.